Pooled drug test results. Numbers come from NIAID ChemDB, via PubChem.

Shared fields: cytotoxicity tests; cells: MT-4; read-out: CC50

An empty or dashed field is not shown.

compound	read by	value
CCOC(=O)c1cc(-c2cccc(Br)c2)n(-c2cccc(OC)c2)c1C	-	143 µM
C[C@H]1CC[C@]2(CC(=O)NO2)[C@H]2CN1C(=O)c1c(O)c(=O)c(C(=O)NCc3ccc(F)cc3F)cn12	luminescence	50 µM
CCCCCCCCCCCCCCCCCCOC(=O)Oc1c2n(cc(C(=O)NCc3ccc(F)cc3F)c1=O)[C@@H]1CN(C2=O)[C@@H](C)CC[C@]12CC(C)=NO2	luminescence	50 µM
Cc1cc(-c2ccc(C#N)cc2)cc(C)c1Oc1ccnc(S(=O)(=O)CC(=O)NCCc2ccc(Cl)cc2)n1	MTT	8.26 µM
CN(C)C(=O)C(=O)N(C)C1CN(CC2CC2)CCn2c1nc(C(=O)NCc1ccc(F)cc1)c(O)c2=O	microscopy	>1 µM
CCCCCCCCCCCCCCCC(=O)Oc1c2n(cc(C(=O)NCc3ccc(F)cc3F)c1=O)[C@@H]1CN(C2=O)[C@@H](C)CC[C@]12CC(OC)=NO2	luminescence	50 µM
COc1ccc(/C=C/C(=O)c2c(O)c3c(C)ccc(C(C)C)c3oc2=O)cc1OC	-	58.15 µg/mL
CCOC(=O)c1cccn1S(=O)(=O)c1cc(Cl)ccc1NC(=O)c1ccc(C)cc1	-	>200 µM
Cc1cc2oc(=O)c(C(=O)/C=C/c3cccc(Oc4ccccc4)c3)c(O)c2cc1Cl	-	51.6 µg/mL
C[C@H]1CC[C@]2(CC(=O)N(CC(C)(C)C)O2)[C@H]2CN1C(=O)c1c(O)c(=O)c(C(=O)NCc3c(F)cc(F)cc3F)cn12	luminescence	50 µM
CCOC(=O)c1cc(-c2cccc(N)c2)n(-c2ccccc2)c1C	-	>300 µM
N#C/C(=C\c1cccc(C#N)c1)n1nnc2ccccc21	-	1.5 µM
CN1Cn2c(nc(C(=O)NCc3ccc(F)cc3S(C)(=O)=O)c(O)c2=O)C1(C)C	microscopy	>1 µM
Cc1cc2oc(=O)c(C(=O)/C=C/c3ccccc3[N+](=O)[O-])c(O)c2cc1Cl	-	6.94 µg/mL
COc1cc(/C=C/c2nc(NC(=O)Nc3cccc([N+](=O)[O-])c3)c3ccccc3n2)cc(OC)c1OC	MTT	1.17 µg/mL
O=C(OCC1CC1)c1cccn1S(=O)(=O)c1cc(Cl)ccc1[N+](=O)[O-]	MTT	96 µM
CCC(CC)Cn1c(-c2ccccc2F)nc2c(OC)cccc21	-	11.68 µg/mL
N#C/C(=C\c1cccc([N+](=O)[O-])c1)n1nnc2ccccc21	-	0.4 µM
COc1ccc(C(C)c2c(C(C)C)c(=O)[nH]c(=O)n2COCc2ccccc2)cc1	MTT	33.28 µM
N#C/C(=C\c1cc(Cl)cc(Cl)c1)n1nnc2ccccc21	-	2 µM
N#Cc1cnn2c1nnc1ccccc12	-	>200 µM
Cn1ccc(CN2CCn3c(nc(C(=O)NCc4ccc(F)cc4)c(O)c3=O)C23CCOCC3)n1	microscopy	>1 µM
CCOC(=O)c1cc2c3cc(OC)ccc3c3ccc(Cl)cc3n2c1C	-	>200 µM
CCCCCCCC(=O)OCOc1c2n(cc(C(=O)NCc3ccc(F)cc3F)c1=O)[C@@H]1CN(C2=O)[C@@H](C)CC[C@]12CC(C)=NO2	luminescence	50 µM
CC(C)(C)OC(=O)N(CCCCCC(=O)Nc1ccn([C@H]2CS[C@@H](COC(=O)CCCCCN(Cc3ccccc3)C(=O)OC(C)(C)C)O2)c(=O)n1)Cc1ccccc1	-	100 µM
C=C(c1ccc(OC)cc1)c1c(C)c(=O)[nH]c(=O)n1COCc1ccccc1	MTT	131 µM
CCCCCCCC(=O)OCOc1c2n(cc(C(=O)NCc3ccc(F)cc3F)c1=O)[C@@H]1CN(C2=O)[C@@H](C)CC[C@]12CC(OC)=NO2	luminescence	50 µM
CCOC(=O)c1cc2ccccc2n1CC(O)CNc1ccccc1C(=O)OC	-	39 µM
Cc1cc(-c2ccc(C#N)cc2)cc(C)c1Oc1ccnc(S(=O)(=O)C(C)C(=O)Nc2ccc(Cl)cc2)n1	MTT	16.35 µM
COc1ccc(/C=C(\C#N)n2nnc3ccccc32)cc1	-	0.05 µM
Cc1ccc(S(=O)(=O)N2CCn3c(nc(C(=O)NCc4ccc(F)cc4)c(O)c3=O)C2)cc1	microscopy	>1 µM
C[C@H]1CC[C@@]2(ON=C3OCCC[C@@H]32)[C@H]2CN1C(=O)c1c(O)c(=O)c(C(=O)NCc3c(F)cc(F)cc3F)cn12	luminescence	50 µM
CCNCC(=O)Nc1ccc(Cl)cc1S(=O)(=O)n1cccc1C(=O)OCC	-	116 µM
C[C@H]1CCC2(OCCO2)[C@H]2CN1C(=O)c1c(O)c(=O)c(C(=O)NCc3ccc(F)cc3F)cn12	luminescence	29.4 µM
COc1cccc2c1nc(-c1ccccc1F)n2CC=C(Cl)Cl	-	45.3 µg/mL
CCOC(=O)c1cccn1S(=O)(=O)c1cc(Cl)ccc1Cl	MTT	>200 µM
COc1ccc(NC(=S)Nc2nc(/C=C/c3cc(OC)c(OC)c(OC)c3)nc3ccccc23)cc1	MTT	4.43 µg/mL
N#Cc1cccn1S(=O)(=O)c1cc(Cl)ccc1N	MTT	13 µM
COc1cc(/C=C/c2nc(NC(=S)Nc3ccccc3)c3ccccc3n2)cc(OC)c1OC	MTT	5.66 µg/mL
CCOC(=O)c1cc(-c2cccc([N+](=O)[O-])c2)n(-c2ccccc2)c1C	-	212 µM
N#C/C(=C\c1ccc(Cl)cc1Cl)n1nnc2ccccc21	-	6 µM
C[C@H]1CC[C@]2(CC(=O)N(Cc3ccc4ccccc4c3)O2)[C@H]2CN1C(=O)c1c(O)c(=O)c(C(=O)NCc3c(F)cc(F)cc3F)cn12	luminescence	50 µM
Cc1cc(C#N)cc(C)c1Oc1ccnc(S(=O)(=O)CC(=O)Nc2ccc(C#N)cc2)n1	MTT	>6.01 µM
CC1=NO[C@]2(CC[C@H](C)N3C[C@H]2n2cc(C(=O)NCc4ccc(F)cc4F)c(=O)c(O)c2C3=O)C1C	luminescence	50 µM
CCOC(=O)c1cccn1S(=O)(=O)c1cc(Cl)ccc1NC(=O)CBr	-	1.7 µM
COc1cccc2c1nc(-c1ccccc1F)n2Cc1ccc(C)cc1	-	11.7 µg/mL
CN1CCn2c(nc(C(=O)NCc3ccc(F)cc3)c(O)c2=O)C1CS(C)(=O)=O	microscopy	>10 µM
[O-][n+]1nc2c(-c3ccccc3)cnn2c2ccccc21	-	>200 µM
COc1cccc2c1nc(-c1ccccc1F)n2Cc1ccccc1C	-	13.2 µg/mL
CCOC(=O)c1cn(CC(O)CNc2cccc(Cl)c2)cc1-c1ccccc1	-	42.7 µM
Cc1cc(/C=C/C#N)cc(C)c1Oc1ccnc(S(=O)(=O)CC(=O)Nc2ccc(Cl)cc2)n1	MTT	4.29 µM
O=C(O)/C(=C\c1ccc(Cl)cc1)n1nnc2ccccc21	-	>100 µM
CC(=O)c1cc(-c2ccccc2)n(-c2cccc(N)c2)c1C	-	22 µM
C[C@H]1CC[C@]2(CC(=O)N(Cc3ccccn3)O2)[C@H]2CN1C(=O)c1c(O)c(=O)c(C(=O)NCc3c(F)cc(F)cc3F)cn12	luminescence	50 µM
O=C(CCCCCNCCCCCNCc1ccccc1)Nc1ccn([C@@H]2CS[C@@H](COC(=O)CCCCCNCCCCCNCc3ccccc3)O2)c(=O)n1	-	>50 µM
Cc1ccc(C(C)(O)c2c(C)c(=O)[nH]c(=O)n2COCc2ccccc2)cc1	MTT	141.6 µM
CCOC(=O)c1cccn1S(=O)(=O)c1cc(Cl)ccc1NC(=O)CN1CCOCC1	-	100 µM
Cc1ccc(C(C)C)c2oc(=O)c(C(=O)/C=C/c3ccccc3[N+](=O)[O-])c(O)c12	-	3.06 µg/mL
CC(=O)c1cc(-c2cccc([N+](=O)[O-])c2)n(-c2ccccc2)c1C	-	>300 µM
CN(Cc1ccccc1)C(=O)c1cccn1S(=O)(=O)c1cc(Cl)ccc1N	MTT	87 µM
CCOC(=O)c1cc2c3cc(N)ccc3c3ccc(OC)cc3n2c1C	-	>200 µM
N#Cc1cnn2c1nnc1cc([N+](=O)[O-])ccc12	-	1.5 µM
CC(C)(C)NC(=O)c1ccccc1NCC(O)Cn1c(C(=O)NC(C)(C)C)cc2cc(Cl)ccc21	-	66 µM
CCCCCCCCCCCCCCCC(=O)OCOc1c2n(cc(C(=O)NCc3ccc(F)cc3F)c1=O)[C@@H]1CN(C2=O)[C@@H](C)CC[C@]12CC(OC)=NO2	luminescence	50 µM
CCC(C)OC(=O)c1cccn1S(=O)(=O)c1cc(Cl)ccc1[N+](=O)[O-]	MTT	32.5 µM
N#C/C(=C\c1ccc(F)cc1F)n1nnc2ccccc21	-	38 µM
O=[N+]([O-])c1ccc2c(c1)[n+]([O-])nc1c([N+](=O)[O-])cnn12	-	1.4 µM
Cc1c(C(C)(O)c2ccccc2Cl)n(COCc2ccccc2)c(=O)[nH]c1=O	MTT	154 µM
CCOC(=O)c1cnn2c1n[n+]([O-])c1cc(Cl)ccc12	-	>200 µM
O=C(CCCCCNCCCCCCNCc1ccccc1)Nc1ccn([C@H]2CS[C@@H](COC(=O)CCCCCNCCCCCCNCc3ccccc3)O2)c(=O)n1	-	10 µM
COc1ccc(NC(=O)Nc2nc(/C=C/c3cc(OC)c(OC)c(OC)c3)nc3ccccc23)cc1	MTT	1.88 µg/mL
CCOC(=O)c1cn(CC(O)CNc2ccccc2N)cc1-c1ccccc1	-	0.8 µM
CCNC(=O)c1cccn1S(=O)(=O)c1cc(Cl)ccc1N	MTT	>200 µM
N#C/C(=C\c1ccc(F)cc1)n1nnc2ccccc21	-	3 µM
C[C@H]1CC[C@]2(CC(=O)N(CC3CCOCC3)O2)[C@H]2CN1C(=O)c1c(O)c(=O)c(C(=O)NCc3c(F)cc(F)cc3F)cn12	luminescence	32.18 µM
CC(C)(C)OC(=O)N(CCCCCCN(Cc1ccccc1)C(=O)OC(C)(C)C)CCCCCC(=O)Nc1ccn([C@@H]2CS[C@@H](COC(=O)CCCCCN(CCCCCCN(Cc3ccccc3)C(=O)OC(C)(C)C)C(=O)OC(C)(C)C)O2)c(=O)n1	-	10 µM
COCCOCCOC(=O)OCOc1c2n(cc(C(=O)NCc3ccc(F)cc3F)c1=O)[C@@H]1CN(C2=O)[C@@H](C)CC[C@]12CC(OC)=NO2	luminescence	50 µM
CC1=NO[C@]2(CC[C@H](C)N3C[C@H]2n2cc(C(=O)NCc4c(F)cc(F)cc4F)c(=O)c(O)c2C3=O)C1	luminescence	50 µM
CC(=O)c1cc(-c2cccc(N=[N+]=[N-])c2)n(-c2ccccc2)c1C	-	18 µM
CC(C)(C)OC(=O)N(CCCCCCN(Cc1ccccc1)C(=O)OC(C)(C)C)CCCCCC(=O)OC[C@H]1O[C@@H](n2ccc(N)nc2=O)CS1	-	10 µM

Neighbouring rows are from separate reports. CCn is the concentration with n% toxicity to the cells.